Measurements reported in PubChem BioAssay AID624099 (ICCB-Longwood, 2012)
Test: 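Host factors E2 relies on to silence an HPV18 LCR reporter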 (primary screen). Cell system: human C33A cervical carcinoma cells (HPV-negative) stably expressing BPV1 E2 and an HPV18 LCR luciferase reporter. Reagents: siRNA pool against human genes, 40 nM. Timing: 72 h. Measurement: 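Per-well luciferase luminescence, z-scored on each plate against the plate mean and SD with control wells left out, then averaged across three replicate plates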. Direction: mean z-score and z-score: higher = stronger reporter signal, weaker E2 silencing. Hit rule: 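Hit if mean z-score reaches 2 and two or more of three replicate z-scores also reach 2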.
Here is a random part of about 21,000 reagents. 497 of them (2.4%) count as active. 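Higher z means weaker E2 silencing; only reporter increases were scored, and knock-downs that hurt cell survival may mask genuine repressor factors.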 No sequences are given here.

With GOLGB1, what does the deposit list?
mean z-score: 0.83; z-score, replicate A: 0.93; z-score, replicate B: 0.97; z-score, replicate C: 0.6; call: inactive

For TTC17, how do the results read?
mean z-score: 0.58; z-score, replicate A: 0.29; z-score, replicate B: -0.23; z-score, replicate C: 1.7; call: inactive

What is on record for LINC02239?
mean z-score: 0.74; z-score, replicate A: 0.78; z-score, replicate B: 0.78; z-score, replicate C: 0.66; call: inactive

With MLN, what was measured?
mean z-score: 1.84; z-score, replicate A: 1.62; z-score, replicate B: 1.76; z-score, replicate C: 2.15; call: inactive

For REXO4, how do the results read?
mean z-score: 1.18; z-score, replicate A: 0.96; z-score, replicate B: 1.32; z-score, replicate C: 1.27; call: inactive

With MEOX1, how do the results read?
mean z-score: 0.49; z-score, replicate A: 0.93; z-score, replicate B: 0.48; z-score, replicate C: 0.07; call: inactive

How did the screen score LOC200226 (retired record)?
mean z-score: 0.72; z-score, replicate A: 0.43; z-score, replicate B: 0.89; z-score, replicate C: 0.85; call: inactive

Which result is listed for TXNDC9?
mean z-score: 0.58; z-score, replicate A: 0.59; z-score, replicate B: 0.48; z-score, replicate C: 0.66; call: inactive

Which result is listed for MCRIP1?
mean z-score: -0.1; z-score, replicate A: -0.33; z-score, replicate B: -0.02; z-score, replicate C: 0.04; call: inactive

With RPS8P10, what was measured?
mean z-score: -1.5; z-score, replicate A: -1.46; z-score, replicate B: -1.24; z-score, replicate C: -1.79; call: inactive

3 consecutive records from above:
GOLGB1 → mean z-score: 0.83; z-score, replicate A: 0.93; z-score, replicate B: 0.97; z-score, replicate C: 0.6; call: inactive
TTC17 → mean z-score: 0.58; z-score, replicate A: 0.29; z-score, replicate B: -0.23; z-score, replicate C: 1.7; call: inactive
LINC02239 → mean z-score: 0.74; z-score, replicate A: 0.78; z-score, replicate B: 0.78; z-score, replicate C: 0.66; call: inactive

More entries:
With ZNF239, how do the results read?
mean z-score: 0.88; z-score, replicate A: 1.05; z-score, replicate B: 0.86; z-score, replicate C: 0.73; call: inactive

For VEZT, how do the results read?
mean z-score: 0.59; z-score, replicate A: 0.23; z-score, replicate B: 0.48; z-score, replicate C: 1.07; call: inactive

How did the screen score GPIHBP1?
mean z-score: -1.89; z-score, replicate A: -1.95; z-score, replicate B: -1.69; z-score, replicate C: -2.01; call: inactive

What did the screen give for SNTB1?
mean z-score: 0.68; z-score, replicate A: 0.66; z-score, replicate B: 0.71; z-score, replicate C: 0.67; call: inactive

What is on record for POLR1HASP?
mean z-score: -1.11; z-score, replicate A: -1.36; z-score, replicate B: -0.79; z-score, replicate C: -1.19; call: inactive

Which result is listed for ADNP?
mean z-score: -1.35; z-score, replicate A: -1.51; z-score, replicate B: -1.31; z-score, replicate C: -1.24; call: inactive

For APOC4, what was measured?
mean z-score: -0.62; z-score, replicate A: -0.71; z-score, replicate B: -0.73; z-score, replicate C: -0.43; call: inactive

With TMEM127, how do the results read?
mean z-score: -0.99; z-score, replicate A: -0.88; z-score, replicate B: -0.89; z-score, replicate C: -1.19; call: inactive

For ZZZ3, what was measured?
mean z-score: 0.36; z-score, replicate A: 0.41; z-score, replicate B: 0.37; z-score, replicate C: 0.28; call: inactive

With MISP, how do the results read?
mean z-score: -0.15; z-score, replicate A: -0.5; z-score, replicate B: 0.14; z-score, replicate C: -0.08; call: inactive

How did the screen score RAMP2?
mean z-score: -0.35; z-score, replicate A: -0.25; z-score, replicate B: -0.48; z-score, replicate C: -0.31; call: inactive
